## Screening data, single-dose tests

Measurements from “University of Dundee, Small-Polar-MMV Screening Library” (2021), ChEMBL document CHEMBL3988442.

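Phenotypic screen: M. tuberculosis growth, cholesterol and DPPC medium, 4 days; the read-out is not stated. Concentration: 500 µM. Higher reads as more growth inhibition (inferred: compounds with an IC50 in retests scored well above the rest). About 18,000 compounds were tested under these conditions; 5% (about 900) showed 50% or more at least once.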

Results are given as percent effect.
The controls that fix the scale are not given in the record; negative values are as filed.
The entries come from a sample that favours strong results.

* CC(C)C(C)(C#N)NC(=O)CNc1cccc(F)c1 (stereo not shown) : 73.24%
* CC(C)c1ncc(C(=O)NC2(c3nnc[nH]3)CCC2)s1 : 2.605%
* CCOC(=O)C1CCc2sc(N)c(C#N)c21 (stereo not shown) : 11.42%
* COc1ccc(OC)c(C(=O)Cn2cnc(C#N)n2)c1 : -1.135%
* CCOC(C)C(=O)Nc1ncccc1F (stereo not shown) : -11.89%
* N[C@@H]1CC[C@@H](NC(=O)c2cc3sccc3[nH]2)C1 : 26.3%
* CCC(CC)(CN)NS(=O)(=O)c1ccc(C(C)=O)cc1 : 15.58%
* CC(N)c1noc(-c2ccccc2)n1 (stereo not shown) : 31.06%
* CN(C)C(=O)c1csc(N2CCCCC2)n1 : 38.88%
* O=C(NCC1CCS(=O)(=O)C1)c1cc2ccccc2[nH]1 (stereo not shown) : -6.287%
* COc1ncccc1NC(=O)Nc1c(C)n[nH]c1C : -8.707%
* CNCc1nc(-c2ccc(F)cc2)no1 : 18.71%
* CC(C)OCc1cccc(NC(C)C(=O)NC(N)=O)c1 (stereo not shown) : 5.622%
* COCCC(=O)NC(C)Cc1ccc(O)cc1 (stereo not shown) : 7.224%
* CCc1nccn1-c1ccc(CN)cc1 : 11.72%
* CCc1cnc(N2CCNCC2)s1 : -3.469%
* NC(=O)c1cnc(NC2CCc3ccccc32)c(Cl)c1 (stereo not shown) : 83.09%
* NCc1cccc(N2CCOCC2)c1 : 9.885%
* Cn1cc(CCNC(=O)NCC2(C)CCCS2)cn1 (stereo not shown) : 10.27%
* CCOC(=O)c1cccnc1C : 0.877%
* CCC(=O)Nc1nc2c(s1)COCC2 : 6.8%
* COCCN(C)CCNC(=O)c1ccc(C)c(OC)c1 : 25.99%
* Cn1cc(CC(=O)Nc2ccc(I)cn2)cn1 : 54.6%
* CN(Cc1ccc(N)nc1)c1ccc(C#N)cn1 : 44.92%
* CN(C)C(=O)CN(C1CCCC1)C1CC1 : -5.921%
* O=S(=O)(CCN1CCC[C@H]1CO)c1ccccc1 : 34.75%
* O=C(NCc1ccccc1)N1CCNCC(O)C1 (stereo not shown) : -16.47%
* COc1cccc(NC(=O)CN2CCN(C)CC2)c1 : 9.115%
* CCC(=O)NCc1ccc(-n2cncn2)nc1 : -2.678%
* COCCNc1ccc(C#N)cc1 : 62.16%
* CC1CN(CCC(=O)NCc2cccs2)CCCO1 (stereo not shown) : 76.74%
* CCC1c2ccsc2CCN1CC(=O)NC (stereo not shown) : 17.59%
* CN(C)C(=O)c1cn(C)nc1C(F)(F)F : -17.51%
* NCc1noc(-c2cccc(Br)c2)n1 : 66.51%